System: bloodstream T. brucei
Test: Trypanosome proliferation inhibition assay (GI50)
Type: cell-based, Trypanosoma brucei brucei
Conditions: CBL0127 vs 1, CBL0100Q vs CBL0100
Procedure: T. brucei (brucei or rhodesiense) were seeded at 4 × 10^3 cells/mL in 24-well plates (0.5 or 1 mL of culture per well). […] Then, at least five drug concentrations[26] covering this range was used for subsequent assays. Each concentration was tested in duplicate. […] Cells were counted only if they were motile. […] Final mean GI50 values were calculated based on two independent experiments, each with at least five data points performed in duplicate. T. brucei were seeded at 4 × 10^3 cells/mL and dispensed into wells of a 384-well black plate (Greiner; Frickenhausen, Germany). Wells in two columns per plate were filled with 50 μL of HMI-9 medium using a Multidrop Combi (Thermo Scientific; Waltham, MA) to serve as a background control. Fifty microliters of trypanosome suspension was added to separate columns using a Multidrop Combi. Lastly, an additional 50 μL of cell resuspension was added to only the top row of wells that contained cells (row A, labeled by Greiner), using an Xplorer multichannel pipette (Eppendorf; Hamburg-Eppendorf, Germany) bringing final volumes of cell-containing wells in the top row to 100 μL. […] St. Louis, MO). […] Base-line corrected non-linear regression graphs were generated and GI50 values determined using GraphPad Prism (GraphPad Software; La Jolla, CA). Final mean GI50 values were calculated based on four separate biological replicates.

Row | Compound | reduction in potency (potency loss) versus comparator [fold]
1 | CC(=O)c1ccc2c(c1)c1cc(C(C)=O)ccc1n2CCCNC(C)C [CBL0127] | 3
2 | CCN(CC)CCCC(C)n1c2ccc3c(c2c2c4c(ccc21)C(=O)CC4)CCC3=O (centres unmarked) [CBL0100Q] | ~250
